Measured values: PMC11952088 (Science Advances, 2025)

B1: AZD3152 (antibody, V domains shown)
VH: EVQLVESGGGLVQPGRSLRLSCAASGFPFDDYAIHWVRLAPGKGLEWVSSISWDSGSIGYADSVKGRFTISRDNAKNSLYLQMNSLRAEDTALYYCAKGAFPGYSSGWYYGLEVWGQGTTVTVSS
VL: QSVVTQPPSASGSLGQSVTISCTGTSSDVGGYNYVSWYQQHPGKAPKLMIFEVSKRPSGVPDRFSGSKSGNTASLTVSGLQAEDEADYYCSSYAGNKGVFGGGTKLTVL
B2: 3152-1142 (antibody, V domains shown)
VH: EVQLVESGGGLVQPGRSLRLSCAASGFPFDDYAIHWVRLAPGKGLEWVSSISWDSGEIGYADSVKGRFTISRDNAKNSLYLQMNSLRAEDTALYYCAKGEFPGYSSGWYYGLEVWGQGTTVTVSS
VL: QSVVTQPPSASGSLGQSVTISCTGTSSDVGGYDYVSWYQQHPGKAPKLMIFEVSQRPSGVPDRFSGSKSGNTASLTVSGLQAEDEADYYCSSYAHNKGVFGGGTKLTVL

Target: SARS-CoV-2 XBB.1.5 RBD (SARS-CoV-2, Omicron XBB.1.5, strain)

| Binder | Kd | koff | kon |
| --- | --- | --- | --- |
| B1 | 2.01 nM | 0.000944 s⁻¹ | 469000 M⁻¹ s⁻¹ |
| B2 | 0.0968 nM | 9.53e-05 s⁻¹ | 985000 M⁻¹ s⁻¹ |
